Potato spindle tuber viroid, loop 6: variant abundance in plants

The measurements come from Wu et al. 2024 (doi:10.1371/journal.ppat.1012142).

Region: loop 6 of PSTVd (intermediate strain), upper and lower strand joined, each 5' to 3', the first 5 letters being the upper strand, closing pairs included. Wild type: UGACCGCGAG. Varied positions (N): UNNNCGNNNG.

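Three N. benthamiana plants were inoculated with the whole mutant pool. Progeny were sequenced from the inoculated region (day 5), the margin of the inoculated leaf (day 10) and systemic leaves (day 12).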

Values are reads per thousand in the sample; higher means more abundant, 0 means not found.
Each value is the mean of three plants.
"Pool" is the share in the plasmid pool used as inoculum, on the same scale.
The inoculated region was read from the minus strand, the other sites from the plus strand.
Wild type was 20.7 per thousand in the pool and the most common sequence in every sample (inoculated region 195, 198, 203; leaf margin 629, 591, 734; systemic leaves 942, 870, 868).
Samples held 36,220 to 57,551 reads, so the smallest values rest on one or two reads.
The authors trace changes outside the varied positions to PCR and sequencing errors or to mutation in the plant; presence does not show that a variant is infectious alone.

{"sequence": "CCGGCGGGAG", "pool": "0.0131", "inoculated region": 0, "leaf margin": 0, "systemic leaves": 0}
{"sequence": "UAAUCGAAAG", "pool": "0.183", "inoculated region": 0.601, "leaf margin": 0.107, "systemic leaves": 0}
{"sequence": "UAAUCGGCCG", "pool": "0.183", "inoculated region": 0.650, "leaf margin": 0.0760, "systemic leaves": 0}
{"sequence": "UACUCGUUAG", "pool": "0.392", "inoculated region": 0.130, "leaf margin": 0.00773, "systemic leaves": 0}
{"sequence": "UAGACGAAGG", "pool": "0.105", "inoculated region": 0.107, "leaf margin": 0, "systemic leaves": 0}
{"sequence": "UAGCCGAUCG", "pool": "0.275", "inoculated region": 0.114, "leaf margin": 0.0261, "systemic leaves": 0}
{"sequence": "UAGCCGCGAG", "pool": "0.366", "inoculated region": 0.256, "leaf margin": 14.7, "systemic leaves": 0.0810}
{"sequence": "UAUACGGCAG", "pool": "0.314", "inoculated region": 0.705, "leaf margin": 0.0460, "systemic leaves": 0}
{"sequence": "UCAACGACAG", "pool": "0.248", "inoculated region": 0.0715, "leaf margin": 0, "systemic leaves": 0}
{"sequence": "UCCACGUAGG", "pool": "0.248", "inoculated region": 0.0770, "leaf margin": 0, "systemic leaves": 0}
{"sequence": "UCCCCGCUUG", "pool": "0.222", "inoculated region": 0.130, "leaf margin": 0.0161, "systemic leaves": 0}
{"sequence": "UCCUCGUCUG", "pool": "0.248", "inoculated region": 0.108, "leaf margin": 0, "systemic leaves": 0.00673}
{"sequence": "UCGCCGACCG", "pool": "0.144", "inoculated region": 0.101, "leaf margin": 0.00773, "systemic leaves": 0}
{"sequence": "UCGCCGCAUG", "pool": "0.209", "inoculated region": 0.0769, "leaf margin": 0.0261, "systemic leaves": 0}
{"sequence": "UCGUCGGUAG", "pool": "0.392", "inoculated region": 0.114, "leaf margin": 0, "systemic leaves": 0}
{"sequence": "UCUGCGGCAG", "pool": "0.235", "inoculated region": 0.0899, "leaf margin": 0, "systemic leaves": 0}
{"sequence": "UCUUCGAGGG", "pool": "0.196", "inoculated region": 0.0961, "leaf margin": 0.0253, "systemic leaves": 0}
{"sequence": "UGCACGACAG", "pool": "0.183", "inoculated region": 0.0777, "leaf margin": 0.00773, "systemic leaves": 0}
{"sequence": "UGGCCGAACG", "pool": "0.275", "inoculated region": 0.180, "leaf margin": 0.0232, "systemic leaves": 0}
{"sequence": "UGGCCUGUCC", "pool": "0.0131", "inoculated region": 0.00615, "leaf margin": 0, "systemic leaves": 0}
{"sequence": "UUAACGCGGG", "pool": "0.261", "inoculated region": 0.101, "leaf margin": 0, "systemic leaves": 0}
{"sequence": "UUAGCGCCAG", "pool": "0.183", "inoculated region": 0.124, "leaf margin": 0, "systemic leaves": 0}
{"sequence": "UUAGCGGCCG", "pool": "0.170", "inoculated region": 0.0661, "leaf margin": 0.00773, "systemic leaves": 0}
{"sequence": "UUCACGAGGG", "pool": "0.196", "inoculated region": 0.137, "leaf margin": 0, "systemic leaves": 0}
{"sequence": "UUCGCGCCCG", "pool": "0.353", "inoculated region": 0.101, "leaf margin": 0, "systemic leaves": 0}
{"sequence": "UUGCCGAUUG", "pool": "0.275", "inoculated region": 0.0639, "leaf margin": 0, "systemic leaves": 0}
{"sequence": "UUGCCGCGCG", "pool": "0.261", "inoculated region": 0.608, "leaf margin": 0.0415, "systemic leaves": 0.0265}
{"sequence": "UUGCCGCUCG", "pool": "0.275", "inoculated region": 0.0903, "leaf margin": 0.0261, "systemic leaves": 0}
{"sequence": "UUUACGCAAG", "pool": "0.144", "inoculated region": 0.692, "leaf margin": 0, "systemic leaves": 0.00673}
{"sequence": "UUUUCCCUGG", "pool": "0.0131", "inoculated region": 0, "leaf margin": 0, "systemic leaves": 0}
{"sequence": "UUUUCGAGCG", "pool": "0.170", "inoculated region": 0.101, "leaf margin": 0.00773, "systemic leaves": 0}

The opening 3 entries, copied out:

- CCGGCGGGAG (pool 0.0131) -> inoculated region 0; leaf margin 0; systemic leaves 0
- UAAUCGAAAG (pool 0.183) -> inoculated region 0.601; leaf margin 0.107; systemic leaves 0
- UAAUCGGCCG (pool 0.183) -> inoculated region 0.650; leaf margin 0.0760; systemic leaves 0